Pooled drug test results. Numbers come from NIAID ChemDB, via PubChem.

Shared fields: tests in culture; organism: Varicella zoster virus; endpoint: EC50

ECn is the concentration giving n% inhibition of infection, replication or growth.

{"smiles": "COc1cc(OC)c(NC(=S)Nc2ccc(NC(=O)c3ccccc3Br)cc2)cc1Cl", "strain": "ELLEN", "cell line": "HFF", "method": "ELISA", "result": ">10 µg/mL"}
{"smiles": "C#CCCCCc1cc2cn([C@H]3C[C@H](O)[C@@H](CO)O3)c(=O)nc2o1", "strain": "YS", "cell line": "HEL", "method": "plaque count", "result": "0.024 µM"}
{"smiles": "CN1c2ccc(Cl)cc2C(C)(C)C12C=Cc1c(ccc3ccccc13)O2", "strain": "07/1 (TK-)", "cell line": "HEL", "method": "plaque count", "result": ">8.8 µM"}
{"smiles": "Nc1ncnc2c1ncn2C[C@@H](CO)OCP(=O)(O)O", "strain": "07/1 (TK-)", "cell line": "HEL", "method": "plaque count", "result": "0.04 µM"}
{"smiles": "Nc1nc(Cl)c2ncn(/C=C3/C[C@H]3CO)c2n1", "cell line": "HFF", "method": "plaque count", "result": ">518 µM"}
{"smiles": "O=c1[nH]c(=O)n([C@H]2C[C@H](O)[C@@H](CO)O2)cc1/C=C/Br", "strain": "OKA", "cell line": "HEF", "result": "0.003 µM"}
{"smiles": "C#C[C@H](O)C1=C[C@@H](n2cnc3c(N)ncnc32)[C@H](O)[C@@H]1O", "strain": "07/1 YS/R (TK-)", "cell line": "HEL", "method": "cytopathic effect", "result": ">50 µg/mL"}
{"smiles": "O=c1[nH]c(=O)n([C@H]2C[C@H](O)[C@@H](CO)O2)cc1/C=C/Br", "strain": "07/1 (TK-)", "cell line": "HEL", "method": "plaque count", "result": ">150 µM"}
{"smiles": "CCCCCCc1cc2cn([C@H]3C[C@H](O)[C@@H](CO)O3)c(=O)nc2[nH]1", "strain": "OKA", "cell line": "HEL", "method": "plaque count", "result": ">50 µM"}
{"smiles": "O=C(O)P(=O)(O)O", "strain": "07/1 (TK-)", "cell line": "HEL", "method": "plaque count", "result": "65.7 µM"}
{"smiles": "Nc1nc(N)c2ncn(CCOCP(=O)(O)O)c2n1", "strain": "Oka PMEDAP-resistant", "cell line": "HEL", "method": "cytopathic effect", "result": "24.5 µM"}
{"smiles": "CCCCc1cc2cnc(=O)[nH]c2o1", "strain": "07/1", "cell line": "HEL", "method": "plaque count", "result": "171 µM"}
{"smiles": "NC1=NC2C(C=CN2CC(CO)CCO)C(=O)N1", "strain": "YS/R (TK-)", "cell line": "HEL", "method": "plaque count", "result": "24.6 µM"}
{"smiles": "CO[C@H](CO)[C@@H](O)CCn1cnc2c(N)ncnc21", "strain": "YS", "cell line": "HEL", "method": "cytopathic effect", "result": ">400 µg/mL"}
{"smiles": "CCCCCCCCCCCc1cc2cn([C@H]3C[C@H](O)[C@@H](CO)O3)c(=O)nc2o1", "strain": "OKA", "cell line": "HEL", "method": "plaque count", "result": "0.4 µM"}
{"smiles": "Nc1nc2c(ncn2COC(CO)CO)c(=O)[nH]1", "strain": "YS/R (TK-)", "cell line": "HEL", "method": "plaque count", "result": "7.1 µM"}
{"smiles": "Cn1cc(C(=O)NCc2ccc(Cl)cc2)c(=O)c2cc(CN3CCOCC3)ccc21", "strain": "SL varicella isolate", "cell line": "HFF", "method": "plaque count", "result": "0.1 µM"}
{"smiles": "COc1cc(OC)c(NC(=S)Nc2ccc(NC(=O)c3cccc(NS(C)(=O)=O)c3)cc2)cc1Cl", "strain": "ELLEN", "cell line": "HFF", "method": "ELISA", "result": ">10 µg/mL"}
{"smiles": "Nc1nc2c(ncn2CC[C@H](O)CCO)c(=O)[nH]1", "strain": "YS", "cell line": "HEL", "method": "cytopathic effect", "result": ">400 µg/mL"}
{"smiles": "Cc1cccn2c(C3OCCS3)cnc12", "strain": "YS", "cell line": "HEL", "result": ">1000 µM"}
{"smiles": "Nc1nc(=O)n([C@@H]2O[C@H](CO)[C@@H](O)[C@@H]2F)cc1I", "strain": "13 isolates", "cell line": "HEL", "method": "plaque count", "result": "0.13 µM"}
{"smiles": "CCCOc1ccc(-c2cc3cn([C@H]4C[C@H](O)[C@@H](CO)O4)c(=O)nc3o2)cc1", "strain": "YS", "cell line": "HEL", "method": "plaque count", "result": "0.0025 µM"}
{"smiles": "CCCCCCCCc1cc2cn([C@H]3C[C@H](O)[C@@H](CO)O3)c(=O)nc2o1", "strain": "OKA", "cell line": "HEL", "method": "plaque count", "result": "0.0008 µM"}
{"smiles": "Nc1nc2c(ncn2CCC(CO)CO)c(=O)[nH]1", "strain": "Clinical isolate VZV-16", "cell line": "HEL", "method": "cytopathic effect", "result": "3.65 µM"}
{"smiles": "COc1ccccc1C(=O)Nc1ccc(NC(=S)NCCc2cc3ccccc3o2)cc1", "strain": "ELLEN", "cell line": "HFF", "method": "ELISA", "result": "0.09 µg/mL"}
{"smiles": "CCOP(=O)(O)COCCn1cnc2c(=O)[nH]c(N)nc21", "strain": "07/1 (TK-)", "cell line": "HEL", "method": "plaque count", "result": "0.007 µg/mL"}
{"smiles": "Cc1cccn2c(C3SCCS3)cnc12", "strain": "YS/R", "cell line": "HEL", "result": ">1000 µM"}
{"smiles": "Cc1ccc(S(=O)(=O)n2cc(I)c(=O)[nH]c2=O)cc1", "strain": "07/1", "cell line": "HEL", "method": "plaque count", "result": "80 µM"}
{"smiles": "Cc1ccn2c(C3SCCS3)cnc2c1", "strain": "YS/R", "cell line": "HEL", "result": ">1000 µM"}
{"smiles": "C=C[C@H](O)C1=C[C@@H](n2cnc3c(N)ncnc32)[C@H](O)[C@@H]1O", "strain": "07/1 YS/R (TK-)", "cell line": "HEL", "method": "cytopathic effect", "result": ">50 µg/mL"}
{"smiles": "COc1ccc2c(c1)OC1(C=C2)N(C)c2ccccc2C1(C)C", "strain": "07/1 (TK-)", "cell line": "HEL", "method": "plaque count", "result": "5.5 µM"}
{"smiles": "CO[C@@H]1[C@H](O)[C@@H](CO)O[C@H]1c1ccccc1", "strain": "OKA", "cell line": "HEL", "method": "plaque count", "result": ">50 µg/mL"}
{"smiles": "Nc1nccc2c1ncn2C[C@@H](CO)OCP(=O)(O)O", "strain": "OKA (TK+)", "cell line": "HEL", "method": "plaque count", "result": "0.06 µg/mL"}
{"smiles": "CN1c2ccc(Cl)cc2C(C)(C)C12C=Nc1c(ccc3ccccc13)O2", "strain": "OKA (TK+)", "cell line": "HEL", "method": "plaque count", "result": ">8.8 µM"}
{"smiles": "Cc1cn(CC[C@H](O)CCO)c(=O)[nH]c1=O", "strain": "07/1 (TK-)", "cell line": "HEL", "method": "cytopathic effect", "result": ">400 µg/mL"}
{"smiles": "Nc1ccn(C[C@@H](CO)OCP(=O)(O)O)c(=O)n1", "cell line": "HFF", "method": "plaque count", "result": "1.8 µM"}
{"smiles": "Cc1ccn2c(C3OCCS3)cnc2c1", "strain": "YS", "cell line": "HEL", "result": ">1000 µM"}
{"smiles": "Nc1ncnc2c1ncn2C[C@@H](CO)OCP(=O)(O)O", "strain": "Oka PFA-resistant/B", "cell line": "HEL", "method": "cytopathic effect", "result": "0.148 µM"}
{"smiles": "CO[C@H](CO)[C@@H](O)CCn1cc(C)c(=O)[nH]c1=O", "strain": "OKA", "cell line": "HEL", "method": "cytopathic effect", "result": ">400 µg/mL"}
{"smiles": "CCOc1ccc(-c2cc3cn([C@H]4C[C@H](O)[C@@H](CO)O4)c(=O)nc3o2)cc1", "strain": "YS", "cell line": "HEL", "method": "plaque count", "result": "0.012 µM"}
{"smiles": "CO[C@H]1[C@H]2O[Si](C(C)C)(C(C)C)O[Si](C(C)C)(C(C)C)OC[C@@H]2O[C@@H]1c1ccccc1", "strain": "OKA", "cell line": "HEL", "method": "plaque count", "result": ">2 µg/mL"}
{"smiles": "Nc1ccn(C[C@@H](CO)OCP(=O)(O)O)c(=O)n1", "strain": "Oka penciclovir-resistant/A", "cell line": "HEL", "method": "cytopathic effect", "result": "0.2 µM"}
{"smiles": "Nc1nc2c(ncn2COCCO)c(=O)[nH]1", "cell line": "HEL 299", "result": "4 µM"}
{"smiles": "Nc1nc2c(ncn2COCCO)c(=O)[nH]1", "cell line": "HFF", "method": "plaque count", "result": "14 µM"}
{"smiles": "CN1c2ccccc2C(C)(C)C12C=Cc1cc([N+](=O)[O-])ccc1O2", "strain": "YS (TK+)", "cell line": "HEL", "method": "plaque count", "result": "5.7 µM"}
{"smiles": "O=C(O)P(=O)(O)O", "strain": "Clinical isolate VZV-32", "cell line": "HEL", "method": "cytopathic effect", "result": "91.8 µM"}
{"smiles": "O=C(NCc1ccc(Cl)cc1)c1c[nH]c2c(F)cccc2c1=O", "strain": "20 isolates", "method": "plaque count", "result": "1.1 µM"}
{"smiles": "Nc1nc2ncn(CCOCP(=O)(O)O)c2c(=O)[nH]1", "strain": "YS/R (TK-)", "cell line": "HEL", "method": "plaque count", "result": "0.05 µg/mL"}
{"smiles": "CN1c2ccc([N+](=O)[O-])cc2C(C)(C)C12C=Cc1ccccc1O2", "strain": "07/1 (TK-)", "cell line": "HEL", "method": "plaque count", "result": ">9.9 µM"}
{"smiles": "CCCCCCCc1cc2cnc(=O)[nH]c2o1", "strain": "07/1", "cell line": "HEL", "method": "plaque count", "result": ">80 µM"}
{"smiles": "Nc1nc(=S)n([C@@H]2O[C@H](CO)[C@@H](O)[C@@H]2O)cc1F", "result": "12.7 µg/mL"}
{"smiles": "CCCCCCCCC#Cc1cn(S(=O)(=O)c2ccc(C)cc2)c(=O)[nH]c1=O", "strain": "07/1", "cell line": "HEL", "method": "plaque count", "result": "10 µM"}
{"smiles": "CCCCCCCc1cc2cn([C@H]3C[C@H](O)[C@@H](CO)O3)c(=O)nc2o1", "strain": "OKA", "cell line": "HEL", "method": "plaque count", "result": "0.12 µM"}
{"smiles": "CCCCCCCC#Cc1c[nH]c(=O)[nH]c1=O", "strain": "07/1", "cell line": "HEL", "method": "plaque count", "result": "34 µM"}
{"smiles": "CN1c2ccccc2C(C)(C)C12C=Nc1c(ccc3ccccc13)O2", "strain": "OKA (TK+)", "cell line": "HEL", "method": "plaque count", "result": "4.5 µM"}
{"smiles": "CCCCCOc1ccc(-c2cc3cn([C@H]4C[C@H](O)[C@@H](CO)O4)c(=O)nc3o2)cc1", "strain": "OKA", "cell line": "HEL", "method": "plaque count", "result": "0.001 µM"}

A second listing of 8 rows from above:

smiles,strain,cell line,method,result
CCCCCCCc1cc2cn([C@H]3C[C@H](O)[C@@H](CO)O3)c(=O)nc2o1,OKA,HEL,plaque count,0.12 µM
CN1c2ccccc2C(C)(C)C12C=Cc1cc([N+](=O)[O-])ccc1O2,YS (TK+),HEL,plaque count,5.7 µM
COc1cc(OC)c(NC(=S)Nc2ccc(NC(=O)c3cccc(NS(C)(=O)=O)c3)cc2)cc1Cl,ELLEN,HFF,ELISA,>10 µg/mL
COc1cc(OC)c(NC(=S)Nc2ccc(NC(=O)c3ccccc3Br)cc2)cc1Cl,ELLEN,HFF,ELISA,>10 µg/mL
Cc1cccn2c(C3SCCS3)cnc12,YS/R,HEL,-,>1000 µM
Nc1nccc2c1ncn2C[C@@H](CO)OCP(=O)(O)O,OKA (TK+),HEL,plaque count,0.06 µg/mL
CO[C@H](CO)[C@@H](O)CCn1cc(C)c(=O)[nH]c1=O,OKA,HEL,cytopathic effect,>400 µg/mL
Nc1nc2c(ncn2CC[C@H](O)CCO)c(=O)[nH]1,YS,HEL,cytopathic effect,>400 µg/mL

Neighbouring rows are from separate reports. Blank or dashed fields: not listed here.